Taken from: PubChem BioAssay AID1259414 (Drosophila RNAi Screening Center, 2018)

- Test: 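Host factors increasing or decreasing Wolbachia levels in cultured fly cells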 (primary screen)
- System: Drosophila JW18 cells infected with Wolbachia
- Knock-down reagent: long dsRNA against Drosophila genes, 0.25 µg dsRNA per well of a 384-well plate
- Duration: 5 days
- Treatment: cells persistently infected with Wolbachia before knock-down; no added drug
- Measured: 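Imaged fluorescence in situ signal for Wolbachia 23S rRNA per DAPI-counted host cell, given as a robust z-score within each plate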
- Scale: Wolbachia per cell robust z: higher = more Wolbachia per host cell than the plate typical
- Call rule: 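Hit when robust z is 1.5 or more, or -1.5 or less, in at least two of three replicates; excludes dsRNAs with several or no targets, genes not expressed in JW18 and well A1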
The screen tested about 24,000 reagents; below is an unselected part of those with a known target gene and a result. Over the whole deposit, about 1,210 (5%) are marked active. 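Inactive calls also include excluded dsRNAs with several or no targets, genes unexpressed in JW18, and well A1, regardless of score.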 No sequences are given here.

Octbeta3R [DRSC15351] | Wolbachia per cell robust z, rep 1: -0.186; Wolbachia per cell robust z, rep 2: 0.523; Wolbachia per cell robust z, rep 3: -9.1; outcome: inactive
Octbeta3R [DRSC16191] | Wolbachia per cell robust z, rep 1: 0.23; Wolbachia per cell robust z, rep 2: -0.805; Wolbachia per cell robust z, rep 3: 0.14; outcome: inactive
Octbeta3R [DRSC21853] | Wolbachia per cell robust z, rep 1: -2.86; Wolbachia per cell robust z, rep 2: -0.0115; Wolbachia per cell robust z, rep 3: 0.488; outcome: inactive
Octbeta3R [DRSC21902] | Wolbachia per cell robust z, rep 1: -1.1; Wolbachia per cell robust z, rep 2: -0.909; Wolbachia per cell robust z, rep 3: -0.455; outcome: inactive
Octbeta3R [DRSC22350] | Wolbachia per cell robust z, rep 1: 0.961; Wolbachia per cell robust z, rep 2: 0.0858; Wolbachia per cell robust z, rep 3: 1.08; outcome: inactive
Octbeta3R [DRSC24019] | Wolbachia per cell robust z, rep 1: -0.162; Wolbachia per cell robust z, rep 2: -3.09; Wolbachia per cell robust z, rep 3: -1.84; outcome: active
Octbeta3R [DRSC25327] | Wolbachia per cell robust z, rep 1: 0.213; Wolbachia per cell robust z, rep 2: 1.07; Wolbachia per cell robust z, rep 3: -0.433; outcome: inactive
Octbeta3R [DRSC26889] | Wolbachia per cell robust z, rep 1: -0.202; Wolbachia per cell robust z, rep 2: -0.208; Wolbachia per cell robust z, rep 3: -1.14; outcome: inactive
CG8568 [DRSC20113] | Wolbachia per cell robust z, rep 1: -0.653; Wolbachia per cell robust z, rep 2: 0.168; Wolbachia per cell robust z, rep 3: -0.157; outcome: inactive
CG8568 [DRSC26687] | Wolbachia per cell robust z, rep 1: 0.323; Wolbachia per cell robust z, rep 2: 0.273; Wolbachia per cell robust z, rep 3: 0.211; outcome: inactive
CG11018 [DRSC06024] | Wolbachia per cell robust z, rep 1: 1.45; Wolbachia per cell robust z, rep 2: 0.887; Wolbachia per cell robust z, rep 3: 0.61; outcome: inactive
CG11018 [DRSC28771] | Wolbachia per cell robust z, rep 1: -1.38; Wolbachia per cell robust z, rep 2: 1.39; Wolbachia per cell robust z, rep 3: 0.149; outcome: inactive
Rsph9 [DRSC01594] | Wolbachia per cell robust z, rep 1: 0.54; Wolbachia per cell robust z, rep 2: 0.41; Wolbachia per cell robust z, rep 3: 0.286; outcome: inactive
Rsph9 [DRSC25908] | Wolbachia per cell robust z, rep 1: -1.24; Wolbachia per cell robust z, rep 2: 0.467; Wolbachia per cell robust z, rep 3: -0.0107; outcome: inactive
CG13870 [DRSC06429] | Wolbachia per cell robust z, rep 1: 0.111; Wolbachia per cell robust z, rep 2: -2.11; Wolbachia per cell robust z, rep 3: -4.77; outcome: inactive
Cyp312a1 [DRSC11128] | Wolbachia per cell robust z, rep 1: 0.503; Wolbachia per cell robust z, rep 2: 0.411; Wolbachia per cell robust z, rep 3: 0.811; outcome: inactive
Cyp312a1 [DRSC24814] | Wolbachia per cell robust z, rep 1: 0.208; Wolbachia per cell robust z, rep 2: -0.773; Wolbachia per cell robust z, rep 3: 0.0517; outcome: inactive
lncRNA:CR42736 [DRSC41396] | Wolbachia per cell robust z, rep 1: -2.57; Wolbachia per cell robust z, rep 2: -0.00388; Wolbachia per cell robust z, rep 3: -0.192; outcome: inactive
CG6028 [DRSC15951] | Wolbachia per cell robust z, rep 1: -12.6; Wolbachia per cell robust z, rep 2: -1.27; Wolbachia per cell robust z, rep 3: -0.831; outcome: inactive
Sry-delta [DRSC24964] | Wolbachia per cell robust z, rep 1: -0.248; Wolbachia per cell robust z, rep 2: 0.156; Wolbachia per cell robust z, rep 3: -0.4; outcome: inactive
Bap170 [DRSC04964] | Wolbachia per cell robust z, rep 1: -0.791; Wolbachia per cell robust z, rep 2: -0.0282; Wolbachia per cell robust z, rep 3: -1.38; outcome: inactive
Bap170 [DRSC21826] | Wolbachia per cell robust z, rep 1: 0.0844; Wolbachia per cell robust z, rep 2: 0.483; Wolbachia per cell robust z, rep 3: -1.51; outcome: inactive
Bap170 [DRSC27559] | Wolbachia per cell robust z, rep 1: -0.864; Wolbachia per cell robust z, rep 2: -0.63; Wolbachia per cell robust z, rep 3: -0.236; outcome: inactive
ari-1 [DRSC20308] | Wolbachia per cell robust z, rep 1: 0.541; Wolbachia per cell robust z, rep 2: -0.263; Wolbachia per cell robust z, rep 3: -3.42; outcome: inactive
ari-1 [DRSC21603] | Wolbachia per cell robust z, rep 1: 0.248; Wolbachia per cell robust z, rep 2: 0.335; Wolbachia per cell robust z, rep 3: 0.676; outcome: inactive
ari-1 [DRSC27556] | Wolbachia per cell robust z, rep 1: 1.75; Wolbachia per cell robust z, rep 2: 0.17; Wolbachia per cell robust z, rep 3: 0.737; outcome: inactive
CG7551 [DRSC10876] | Wolbachia per cell robust z, rep 1: 1.04; Wolbachia per cell robust z, rep 2: 0.0121; Wolbachia per cell robust z, rep 3: 0.0269; outcome: inactive
CG32454 [DRSC11652] | Wolbachia per cell robust z, rep 1: -2.79; Wolbachia per cell robust z, rep 2: -0.615; Wolbachia per cell robust z, rep 3: 0.101; outcome: inactive
CG13996 [DRSC02328] | Wolbachia per cell robust z, rep 1: -1.17; Wolbachia per cell robust z, rep 2: -0.34; Wolbachia per cell robust z, rep 3: -0.534; outcome: inactive
CG9514 [DRSC20190] | Wolbachia per cell robust z, rep 1: -0.547; Wolbachia per cell robust z, rep 2: 0.775; Wolbachia per cell robust z, rep 3: 0.53; outcome: inactive
CG9514 [DRSC20191] | Wolbachia per cell robust z, rep 1: -2.28; Wolbachia per cell robust z, rep 2: -0.674; Wolbachia per cell robust z, rep 3: -1.63; outcome: active
CG9514 [DRSC30059] | Wolbachia per cell robust z, rep 1: 0.615; Wolbachia per cell robust z, rep 2: -0.665; Wolbachia per cell robust z, rep 3: 1.62; outcome: inactive

3 entries from above, set out differently:
Bap170 [DRSC21826]
- Wolbachia per cell robust z, rep 1: 0.0844
- Wolbachia per cell robust z, rep 2: 0.483
- Wolbachia per cell robust z, rep 3: -1.51
- outcome: inactive

Bap170 [DRSC27559]
- Wolbachia per cell robust z, rep 1: -0.864
- Wolbachia per cell robust z, rep 2: -0.63
- Wolbachia per cell robust z, rep 3: -0.236
- outcome: inactive

ari-1 [DRSC20308]
- Wolbachia per cell robust z, rep 1: 0.541
- Wolbachia per cell robust z, rep 2: -0.263
- Wolbachia per cell robust z, rep 3: -3.42
- outcome: inactive
